A mixed list of measured activities; the numbers were collected in NIAID ChemDB.

Common to all: whole-cell or culture tests; organism: Cryptosporidium parvum; measure: EC50

Neighbouring rows are from separate reports. ECn is the concentration giving n% inhibition of infection, replication or growth.

Cc1ccc(C(=O)Nc2ccc(S(=O)(=O)O)c3cc(S(=O)(=O)O)cc(S(=O)(=O)O)c23)cc1NC(=O)c1cccc(NC(=O)Nc2cccc(C(=O)Nc3cc(C(=O)Nc4ccc(S(=O)(=O)O)c5cc(S(=O)(=O)O)cc(S(=O)(=O)O)c45)ccc3C)c2)c1 ; cell line: HCT-8 ; value: >1 µM
N/C(=N\N=C\c1ccc(Cl)cc1)N/N=C/c1ccc(Cl)cc1 ; cell line: L929 ; strain: Human isolate ; value: >20 µg/mL
NS(=O)(=O)c1cc([N+](=O)[O-])c(N2CCCCC2)c([N+](=O)[O-])c1 ; cell line: MDCK cells ; method: ELISA / luminescence ; value: 0.9 µM
CC(C)[C@H](NC(=O)[C@H](CCCN=C(N)N)NC(=O)N[C@@H](Cc1ccccc1)C(=O)O)C(=O)N[C@H](C=O)CCCN=C(N)N ; method: cell count / microscopy ; value: <100 µg/mL
CCN(CC)CCCC(C)Nc1ccnc2cc(Cl)ccc12 ; cell line: HCT-8 ; value: >1 µM
CCCN(CCC)c1c([N+](=O)[O-])cc(C(F)(F)F)cc1[N+](=O)[O-] ; value: 1.14 µM
CNC(=O)c1cc([N+](=O)[O-])c(N2CCOCC2)c([N+](=O)[O-])c1 ; cell line: MDCK cells ; method: ELISA / luminescence ; value: 49.5 µM
Cc1cc(-n2c(=O)[nH]c(=O)n(C)c2=O)ccc1Oc1ccc(SC(F)(F)F)cc1 ; cell line: HCT-8 ; value: >1 µM
CCCCc1cc2c(=O)c(C(=O)OC)c[nH]c2cc1OCc1ccccc1 ; cell line: L929 ; strain: Calf isolate ; value: >20 µg/mL
Cc1c(N)nc([C@H](CC(N)=O)NC[C@H](N)C(N)=O)nc1C(=O)N[C@H](C(=O)N[C@H](C)[C@@H](O)[C@H](C)C(=O)N[C@H](C(=O)NCCc1nc(-c2nc(C(=O)NCCC[S+](C)C)cs2)cs1)[C@@H](C)O)C(O[C@@H]1O[C@@H](CO)[C@@H](O)[C@H](O)[C@@H]1O[C@H]1O[C@H](CO)[C@@H](O)[C@H](OC(N)=O)[C@@H]1O)c1cnc[nH]1 ; cell line: HCT-8 ; value: >1 µM
CN(C)[C@@H]1C(=O)C(C(N)=O)=C(O)[C@@]2(O)C(=O)C3=C(O)c4c(O)cccc4[C@@](C)(O)[C@H]3[C@H](O)[C@@H]12 ; cell line: L929 ; strain: Calf isolate ; value: >20 µg/mL
CCCN(CCC)c1c([N+](=O)[O-])cc(C(=O)NC)cc1[N+](=O)[O-] ; cell line: MDCK cells ; method: ELISA / luminescence ; value: 4.7 µM
N#CC(c1ccc(Cl)cc1)c1c(Cl)cc(-n2ncc(=O)[nH]c2=O)cc1Cl ; cell line: L929 ; strain: Calf isolate ; value: >20 µg/mL
O=S(=O)(F)Cc1ccccc1 ; value: >1000 µM
CCCC(CC1CC1)c1c([N+](=O)[O-])cc(C(F)(F)F)cc1[N+](=O)[O-] ; value: 1.9 µM
CCCCN(CCCC)CCC(O)c1cc2c(Cl)cc(Cl)cc2c2cc(C(F)(F)F)ccc12 ; cell line: L929 ; strain: Calf isolate ; value: <4 µg/mL

Repeating the first 2 entries:

{"SMILES": "Cc1ccc(C(=O)Nc2ccc(S(=O)(=O)O)c3cc(S(=O)(=O)O)cc(S(=O)(=O)O)c23)cc1NC(=O)c1cccc(NC(=O)Nc2cccc(C(=O)Nc3cc(C(=O)Nc4ccc(S(=O)(=O)O)c5cc(S(=O)(=O)O)cc(S(=O)(=O)O)c45)ccc3C)c2)c1", "cell line": "HCT-8", "value": ">1 µM"}
{"SMILES": "N/C(=N\\N=C\\c1ccc(Cl)cc1)N/N=C/c1ccc(Cl)cc1", "cell line": "L929", "strain": "Human isolate", "value": ">20 µg/mL"}